Results taken from US20190359955.
Where a chain is given by its changes, count along the chain named. Protein sequences can lack the tags named with them.

Assays:
Assay in all cases: activity assay
[1] = biological target: T1, Tn5059 (hyperactive Tn5 K212R/P214R/G251R/A338V) (UniProt Q46731); conditions: tagmentation; library size 2.2x of Tn5001, reduced AT dropout; purified recombinant protein; protein details: StrepTag-II and SUMO vector
T1 sequence (limits assumed): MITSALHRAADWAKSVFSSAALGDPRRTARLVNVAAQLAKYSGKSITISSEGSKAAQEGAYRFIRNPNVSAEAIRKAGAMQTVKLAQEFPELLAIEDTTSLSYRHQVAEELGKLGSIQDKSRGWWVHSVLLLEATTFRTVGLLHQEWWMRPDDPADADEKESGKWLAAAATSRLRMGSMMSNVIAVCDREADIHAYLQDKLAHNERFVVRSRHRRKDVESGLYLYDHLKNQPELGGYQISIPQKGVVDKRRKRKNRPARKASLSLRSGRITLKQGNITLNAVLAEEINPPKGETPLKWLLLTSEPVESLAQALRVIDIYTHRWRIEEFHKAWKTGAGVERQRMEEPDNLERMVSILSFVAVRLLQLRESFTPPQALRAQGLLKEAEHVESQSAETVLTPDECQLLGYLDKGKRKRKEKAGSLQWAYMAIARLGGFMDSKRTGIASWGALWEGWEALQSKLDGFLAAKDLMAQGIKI

[2] = biological target: T2, Tn5001 (hyperactive Tn5 transposase control) (UniProt Q46731); conditions: tagmentation of B. cereus gDNA, reference control, purified recombinant protein, protein details: StrepTag-II and SUMO vector
T2 sequence (limits assumed): T1 sequence (limits assumed) with R212K, R214P, R251G, V338A

[3] = biological target: T3, Tn5061 (hyperactive Tn5 E146Q/E190G/G251R) (UniProt Q46731); conditions: tagmentation of B. cereus gDNA; purified recombinant protein; protein details: StrepTag-II and SUMO vector
T3 sequence (limits assumed): T1 sequence (limits assumed) with E146Q, E190G, R212K, R214P, V338A

[4] = biological target: T4, Tn5058 (hyperactive Tn5 K212R/P214R/A338V) (UniProt Q46731); conditions: tagmentation; library size 1.7x of Tn5001, reduced AT dropout; purified recombinant protein; protein details: StrepTag-II and SUMO vector
T4 sequence (limits assumed): T1 sequence (limits assumed) with R251G

Tn5 W125M = biological target: T5, Tn5 W125M (UniProt Q46731); conditions: tagmentation of E. coli gDNA; reduced bias in 2nd half of IVC plot; backbone not explicit; protein in a lysate after overexpression; protein details: StrepTag-II and SUMO vector
T5 sequence (limits assumed): T1 sequence (limits assumed) with W125M, R212K, R214P, R251G, V338A

Tn5 K120Y = biological target: T6, Tn5 K120Y (UniProt Q46731); conditions: tagmentation of E. coli gDNA; duplication 9 to 10 bp; backbone not explicit; protein in a lysate after overexpression; protein details: StrepTag-II and SUMO vector
T6 sequence (limits assumed): T1 sequence (limits assumed) with K120Y, R212K, R214P, R251G, V338A

Tn5 K120F = biological target: T7, Tn5 K120F (UniProt Q46731); conditions: tagmentation of E. coli gDNA; duplication 9 to 10 bp; backbone not explicit; protein in a lysate after overexpression; protein details: StrepTag-II and SUMO vector
T7 sequence (limits assumed): T1 sequence (limits assumed) with K120F, R212K, R214P, R251G, V338A

Tn5 K120W = biological target: T8, Tn5 K120W (UniProt Q46731); conditions: tagmentation of E. coli gDNA; duplication 9 to 10 bp; backbone not explicit; protein in a lysate after overexpression; protein details: StrepTag-II and SUMO vector
T8 sequence (limits assumed): T1 sequence (limits assumed) with K120W, R212K, R214P, R251G, V338A

Tn5 D248Y = biological target: T9, Tn5 D248Y (UniProt Q46731); conditions: tagmentation of E. coli gDNA; loss of insertion symmetry; backbone (wt or hyperactive) not explicit; protein in a lysate after overexpression; protein details: StrepTag-II and SUMO vector
T9 sequence (limits assumed): T1 sequence (limits assumed) with R212K, R214P, D248Y, R251G, V338A

Measured: activity on this sequence

GTCTCGTGGGCTCGGAGATGTGTATAAGAGACAG / CTGTCTCTTATACACATCT [Tn5-ME-B transposon (Tn5MEB/NTS)]
active: [1] | [2]; with ME-A | [3] | [4]

TCGTCGGCAGCGTCAGATGTGTATAAGAGACAG / CTGTCTCTTATACACATCT [Tn5-ME-A transposon (Tn5MEA/NTS)]
active: Tn5 W125M | [1] | Tn5 K120Y | Tn5 K120F | Tn5 K120W | Tn5 D248Y | [2]; with ME-B | [3] | [4]
